A mixed list of measured activities; the numbers were collected in NIAID ChemDB.

Common to all: target-level tests; species: HIV-1; target: Reverse transcriptase; read by: nucleotide incorporation; endpoint: IC50

Two numbers with a dash give a range or band. Lines come from different laboratories, so protocols vary. ICn is the concentration giving n% inhibition.

{"compound": "O=C(OCC1OC(OC(=O)c2cc(O)c(O)c(O)c2)C(OC(=O)c2cc(O)c(O)c(O)c2)C(OC(=O)c2cc(O)c(O)c(O)c2)C1OC(=O)c1cc(O)c(O)c(O)c1Oc1cc2c(c(O)c1O)-c1c(cc(O)c(O)c1O)C(=O)OCC1OC(OC(=O)c3cc(O)c(O)c(O)c3)C(OC(=O)c3cc(O)c(O)c(O)c3)C(OC(=O)c3cc(O)c(O)c(O)c3)C1OC2=O)c1cc(O)c(O)c(O)c1", "result": ">20 µg/mL"}
{"compound": "Cn1cc(C(=O)Nc2cc(C(=O)NCCC(=O)Nc3cc(C(=O)Nc4cc(C(=O)NCCC(=N)N)n(C)c4)n(C)c3)cn2C)cc1NC(=O)CN=C(N)N", "result": "145 µM"}
{"compound": "CCOC(=O)N1CCC(=C(c2cc(C)c(OC)c(C(=O)OC)c2)c2cc(C)c(OC)c(C(=O)OC)c2)CC1", "result": ">100 µM"}
{"compound": "COc1ccc(/C=N/Nc2cc(C)nc3ccc(OC)cc23)cc1", "result": "0.91 µM"}
{"compound": "CC(C)=CCOc1cc(NC(=S)c2ccsc2C)ccc1Cl", "result": "0.054 µM"}
{"compound": "Cc1cn(C2OC(CO[Si](C)(C)C(C)(C)C)C3(OS(=O)(=O)C=C3N)C2O[Si](C)(C)C(C)(C)C)c(=O)n(/C=C/CO)c1=O", "result": "0.5 µM"}
{"compound": "Oc1cc(O)c2c(c1)O[C@@]1(c3ccc(O)c(O)c3)Oc3cc(O)c4c(c3[C@@H]2[C@H]1O)O[C@H](c1ccc(O)c(O)c1)[C@H](O)[C@H]4c1c(O)cc(O)c2c1O[C@H](c1ccc(O)c(O)c1)[C@H](O)C2", "result": ">20 µg/mL"}
{"compound": "Nc1cccnc1N1CCN(C(=O)c2cc3ccccc3[nH]2)CC1", "result": ">100 µM"}
{"compound": "C=C(C)C1C=C[C@@H](OC(=O)c2cccnc2)C23COC(C)(C(=O)[C@@]4(OC(C)=O)C[C@H](C)[C@H](OC(=O)CCC)C4[C@H]2OC(=O)CC)C13", "result": "79.9 µg/mL"}
{"compound": "CCc1cc(CCc2nc3ccccc3o2)c(=O)[nH]c1C", "changes": "RT-Y188H", "result": "0.7722 µM"}
{"compound": "O=C1OCC2OC(=O)c3cc(O)c(O)c(O)c3-c3c(O)c(O)c(O)c4c3C(=O)OC(C2OC(=O)c2cc(O)c(O)c(O)c2-c2c1cc(O)c(O)c2O)C1OC(=O)c2c-4c(O)c(O)c(O)c2[C@H]1O", "result": ">20 µg/mL"}
{"compound": "Cc1cccc(Sc2c(C)c[nH]c(=O)c2N)c1", "result": ">40 µM"}
{"compound": "C=c1c2ccccc2c(=C2CCN(C(=O)OC)CC2)c2ccccc12", "result": ">100 µM"}
{"compound": "CCN(CC)c1cccnc1N1CCN(C(=O)c2cc3ccccc3[nH]2)CC1", "result": "<100 µM"}
{"compound": "O=C(O[C@@H]1[C@@H](c2c(O)cc(O)c3c2O[C@H](c2ccc(O)c(O)c2)[C@H](OC(=O)c2cc(O)c(O)c(O)c2)C3)c2c(O)cc(O)cc2O[C@@H]1c1ccc(O)c(O)c1)c1cc(O)c(O)c(O)c1", "result": ">20 µg/mL"}
{"compound": "COc1ccc2c(N/N=C/c3ccc(O)cc3)ccnc2c1", "result": "0.09 µM"}
{"compound": "CN(C)c1nc(N)nc2c1ncn2[C@H]1C[C@H](N=[N+]=[N-])[C@@H](CO)O1", "changes": "K65R", "result": ">50 µM"}
{"compound": "CC1(C)C=C2[C@H]3CC[C@@H]4[C@@]5(C)CC[C@H](O)C(C)(C)[C@@H]5CC[C@@]4(C)[C@]3(C)CC[C@@]2(C)CC1", "result": "45 µM"}
{"compound": "CCNC(=O)c1[nH]c2ccc(Cl)cc2c1Sc1ccccc1", "result": "0.003–0.035 µM"}
{"compound": "Cc1cn(C2OC(CO[Si](C)(C)C(C)(C)C)C3(OS(=O)(=O)C=C3N)C2O[Si](C)(C)C(C)(C)C)c(=O)n(CCCNC(=O)c2ccc(C(=O)c3ccccc3)cc2)c1=O", "result": "0.5 µM"}
{"compound": "COc1cccc(/C=N/Nc2cc(C)nc3ccc(OC)cc23)c1", "result": "1.41 µM"}
{"compound": "CC(C)=CCOc1cc(NC(=S)c2ccoc2C)ccc1Cl", "result": "0.022 µM"}
{"compound": "N=C(N)c1ccc(N=NNc2ccc(C(=N)N)cc2)cc1", "result": "600 µM"}
{"compound": "CC(C)(C)CNc1cccnc1N1CCN(C(=O)c2cc3ccccc3[nH]2)CC1", "result": ">100 µM"}
{"compound": "CN1CCN(c2ccc3nc(-c4ccc5nc(-c6ccc(O)cc6)[nH]c5c4)[nH]c3c2)CC1", "result": "220 µM"}
{"compound": "CCNc1cccnc1N1CCN(CCc2cc(C)c(OC)c(C)c2)CC1", "result": ">100 µM"}
{"compound": "COc1ccc(/C=N/Nc2cc(C)nc3c(OC)cccc23)cc1", "result": "1.11 µM"}
{"compound": "CCc1c(C)[nH]c(=O)c([N+](=O)[O-])c1Sc1cc(C)cc(C)c1", "result": "0.21 µM"}
{"compound": "O=C(O[C@@H]1[C@H](c2c(O)cc(O)c3c2O[C@H](c2ccc(O)c(O)c2)[C@H](OC(=O)c2cc(O)c(O)c(O)c2)C3)c2c(O)cc(O)c([C@H]3c4c(O)cc(O)cc4O[C@H](c4ccc(O)c(O)c4)[C@@H]3OC(=O)c3cc(O)c(O)c(O)c3)c2O[C@@H]1c1ccc(O)c(O)c1)c1cc(O)c(O)c(O)c1", "result": ">20 µg/mL"}
{"compound": "Cc1ccc(CSc2cc(NC(=S)c3ccoc3C)ccc2Cl)cc1", "result": "8.546 µM"}
{"compound": "CC(/C=C/C=C\\C=C\\C=C(/C)C(=O)NC(C)CO)=C\\C(C)C(O)/C(C)=C/C(C)CCc1ccccc1", "result": "386 µM"}
{"compound": "COc1cccc2[nH]c(C(=O)N3CCN(c4ncccc4NC(C)C)CC3)cc12", "result": "<100 µM"}
{"compound": "C=C(C)C1C=C[C@@H](OC(=O)c2cccnc2)C23COC(C)(C(=O)[C@@]4(OC(C)=O)C[C@H](C)[C@H](OC(=O)CCC)C4[C@H]2OC(=O)CCC)C13", "result": "66.8 µg/mL"}
{"compound": "O=C(O)/C=C/c1ccc(N=Nc2c(S(=O)(=O)O)cc3cc(NC(=O)Nc4ccc5c(O)c(N=Nc6ccc(/C=C/C(=O)O)cc6)c(S(=O)(=O)O)cc5c4)ccc3c2O)cc1", "result": "0.024 µM"}
{"compound": "Cc1occc1C(=S)Nc1ccc(Cl)c(OCCC(C)C)c1", "result": "0.133 µM"}
{"compound": "CC(=O)Nc1c(Sc2cc(C)cc(C)c2)c(C)c[nH]c1=O", "result": ">40 µM"}
{"compound": "COc1cccc(CNC(=O)c2[nH]c3ccc(Cl)cc3c2Sc2ccccc2)c1", "result": "0.003–0.035 µM"}
{"compound": "O=C(OC1[C@H](O)CC(O)(C(=O)O)C[C@H]1O)c1cc(O)c(O)c(O)c1", "result": ">20 µg/mL"}
{"compound": "CC(C)Nc1cccnc1OCCOC(=O)c1cc2ccccc2[nH]1", "result": "<100 µM"}
{"compound": "Oc1cc(O)c2c(c1)O[C@H](c1ccc(O)c(O)c1)[C@H](O)[C@H]2c1c(O)cc(O)c2c1O[C@@]1(c3ccc(O)c(O)c3)Oc3cc(O)c4c(c3[C@@H]2[C@H]1O)O[C@H](c1ccc(O)c(O)c1)[C@H](O)[C@H]4c1c(O)cc(O)c2c1O[C@H](c1ccc(O)c(O)c1)[C@H](O)C2", "result": ">20 µg/mL"}
{"compound": "COC(=O)c1cc(C(=C2CCN(C(=O)OC)CC2)c2cc(Cl)c(OC)c(C(=O)OC)c2)cc(Cl)c1OC", "result": ">100 µM"}
{"compound": "O=C1OC2C(COC(=O)c3cc(O)c(O)c(O)c3)OC(OC(=O)c3cc(O)c(O)c(O)c3)C(OC(=O)c3cc(O)c(O)c4c3[C@@H]3C1=CC(=O)C(O)(O)C3(O)O4)C2OC(=O)c1cc(O)c(O)c(O)c1", "result": ">20 µg/mL"}
{"compound": "Cn1ccnc1CNC(=O)c1[nH]c2ccc(Cl)cc2c1S(=O)(=O)c1ccccc1", "result": "0.003–0.035 µM"}
{"compound": "C=C1CC[C@@]2(C)[C@@H]([C@@H]1C)[C@H]1CCC3[C@@]4(C)CC[C@H](O)C(C)(C)[C@@H]4CC[C@@]3(C)[C@]1(C)C[C@@H]2O", "result": "20 µM"}
{"compound": "Cn1cc(C(=O)Nc2cc(C(=O)NCCCCCCCC(=O)Nc3cc(C(=O)Nc4cc(C(=O)NCCC(=N)N)n(C)c4)n(C)c3)cn2C)cc1NC(=O)CN=C(N)N", "result": "200 µM"}
{"compound": "CC(Cc1ccccc1)NC(=S)Nc1nccs1", "result": "0.45 µM"}
{"compound": "O=C1NCC(CCC2(C(F)(F)F)OC(=O)Nc3ccc(Cl)cc32)O1", "result": "1.9 µM"}
{"compound": "O=C(O[C@@H]1Cc2c(O)cc(O)cc2O[C@@H]1c1ccc(O)c(O)c1)c1cc(O)c(O)c(O)c1", "result": ">20 µg/mL"}
{"compound": "COc1cc(CNC(=O)c2[nH]c3ccc(Cl)cc3c2Sc2ccccc2)ccn1", "result": "0.003–0.035 µM"}
{"compound": "CC(C)=CCC[C@@H](C)[C@@H]1CC[C@]2(C)C3=C(CC[C@@]12C)[C@@]1(C)CC[C@H](O)C(C)(C)[C@@H]1CC3", "result": "14 µM"}
{"compound": "Cc1cn(C2OC(CO[Si](C)(C)C(C)(C)C)C3(OS(=O)(=O)C=C3N)C2O[Si](C)(C)C(C)(C)C)c(=O)n(CC(=O)N(CCCl)CCCl)c1=O", "result": "8.2 µM"}

The first 5 rows once more:

{"compound": "O=C(OCC1OC(OC(=O)c2cc(O)c(O)c(O)c2)C(OC(=O)c2cc(O)c(O)c(O)c2)C(OC(=O)c2cc(O)c(O)c(O)c2)C1OC(=O)c1cc(O)c(O)c(O)c1Oc1cc2c(c(O)c1O)-c1c(cc(O)c(O)c1O)C(=O)OCC1OC(OC(=O)c3cc(O)c(O)c(O)c3)C(OC(=O)c3cc(O)c(O)c(O)c3)C(OC(=O)c3cc(O)c(O)c(O)c3)C1OC2=O)c1cc(O)c(O)c(O)c1", "result": ">20 µg/mL"}
{"compound": "Cn1cc(C(=O)Nc2cc(C(=O)NCCC(=O)Nc3cc(C(=O)Nc4cc(C(=O)NCCC(=N)N)n(C)c4)n(C)c3)cn2C)cc1NC(=O)CN=C(N)N", "result": "145 µM"}
{"compound": "CCOC(=O)N1CCC(=C(c2cc(C)c(OC)c(C(=O)OC)c2)c2cc(C)c(OC)c(C(=O)OC)c2)CC1", "result": ">100 µM"}
{"compound": "COc1ccc(/C=N/Nc2cc(C)nc3ccc(OC)cc23)cc1", "result": "0.91 µM"}
{"compound": "CC(C)=CCOc1cc(NC(=S)c2ccsc2C)ccc1Cl", "result": "0.054 µM"}